Tested on: MRC5
Assay: MRC5 cytotoxicity assay
Format: cell-based, human
Conditions: selectivity index
Protocol: Primary peritoneal mouse macrophages (PMM) were collected two days after peritoneal stimulation with a 2% potato starch suspension. MRC5SV2 cells (diploid human embryonic lung fibroblasts) were cultured in minimal essential medium (MEM) containing Earle’s salts, supplemented with L-glutamine, NaHCO3, and 5% inactivated fetal calf serum. All cultures and assays were conducted at 37 °C under an atmosphere of 5% CO2.
Assays were performed in sterile 96-well microtiter plates, each well containing 10 μL of the compound dilution and 190 μL of MRC5SV2 or PMM inoculum (3 × 10^4 cells/mL). Cell growth was compared to untreated controls (100% growth) and assay-media controls (0% growth). After three-day incubation, cell viability was assessed fluorometrically by adding resazurin (50 μL/well of a stock solution in phosphate buffer (50 μg/mL)), incubating for 4 h and measuring fluorescence (λex 550 nm, λem 590 nm). The results were expressed as a percentage reduction in cell growth compared to untreated control wells. […] Tamoxifen was included as the reference drug.

[1] = Table 5, ratio of CC50/EC50 (L. infantum)
[2] = Table 4, ratio of CC50/EC50 (L. infantum)
[3] = Table 6 (L. donovani table), ratio of CC50/EC50

Row | SMILES | MRC5 SI [1] | MRC5 SI [2] | MRC5 SI [3]
1 | Cc1c(C(=O)Nc2ccc3c(c2)B(O)OC3)nnn1-c1cccnc1 [Compound 27, N-(1-Hydroxy-1,3-dihydrobenzo[c][1,2]oxaborol-6-yl)-5-methyl-1-(pyridin-3-yl)-1H-1,2,3-triazole-4-carboxamide] | >1.8 | – | –
2 | O=C(Nc1ccc2c(c1)B(O)OC2)c1cn(C(F)(F)F)nc1C(F)(F)F [Compound 4, N-(1-Hydroxy-1,3-dihydrobenzo[c][1,2]oxaborol-6-yl)-1,3-bis(trifluoromethyl)-1H-pyrazole-4-carboxamide] | – | >31 | –
3 | COc1cccc(-n2nnc(C(=O)Nc3ccc4c(c3)B(O)OC4)c2C)n1 [Compound 25, N-(1-Hydroxy-1,3-dihydrobenzo[c][1,2]oxaborol-6-yl)-1-(6-methoxypyridin-2-yl)-5-methyl-1H-1,2,3-triazole-4-carboxamide] | >80 | – | –
4 | O=C(Nc1ccc2c(c1)B(O)OC2)c1cn(C2CCOCC2)nc1C(F)(F)F [Compound 10, N-(1-Hydroxy-1,3-dihydrobenzo[c][1,2]oxaborol-6-yl)-1-(tetrahydro-2H-pyran-4-yl)-3-(trifluoromethyl)-1H-pyrazole-4-carboxamide] | – | >21 | –
5 | Cc1nn(-c2ccccn2)cc1C(=O)Nc1ccc2c(c1)B(O)OC2 [Compound 11, N-(1-Hydroxy-1,3-dihydro-2,1-benzoxaborol-6-yl)-3-methyl-1-(pyridine-2-yl)-1H-pyrazole-4-carboxamide] | – | >11 | –
6 | Cn1nc(-c2ccccn2)cc1C(=O)Nc1ccc2c(c1)B(O)OC2 [Compound 20, N-(1-Hydroxy-1,3-dihydrobenzo[c][1,2]oxaborol-6-yl)-1-methyl-3-(pyridin-2-yl)-1H-pyrazole-5-carboxamide] | – | >2 | –
7 | Cc1c(C(=O)Nc2ccc3c(c2)B(O)OC3)nnn1-c1ccccn1 [Compound 23, N-(1-Hydroxy-1,3-dihydrobenzo[c][1,2]oxaborol-6-yl)-5-methyl-1-(pyridin-2-yl)-1H-1,2,3-triazole-4-carboxamide] | >39 | – | >46
8 | CCCCCCCCCCCCCCCCOP(=O)([O-])OCC[N+](C)(C)C [miltefosine, reference compound] | – | >6.2 | –
9 | Cc1c(C(=O)Nc2ccc3c(c2)B(O)OC3)cnn1CCC(F)(F)F [Compound 15, N-(1-Hydroxy-1,3-dihydrobenzo[c][1,2]oxaborol-6-yl)-5-methyl-1-(3,3,3-trifluoropropyl)-1H-pyrazole-4-carboxamide] | – | >5 | –
10 | Cc1cccc(-n2nnc(C(=O)Nc3ccc4c(c3)B(O)OC4)c2C)n1 [Compound 26, N-(1-Hydroxy-1,3-dihydrobenzo[c][1,2]oxaborol-6-yl)-5-methyl-1-(6-methylpyridin-2-yl)-1H-1,2,3-triazole-4-carboxamide] | >10 | – | –
11 | Cc1c(C(=O)Nc2ccc3c(c2)B(O)OC3)nnn1-c1ccccc1 [Compound 24, N-(1-Hydroxy-1,3-dihydrobenzo[c][1,2]oxaborol-6-yl)-5-methyl-1-phenyl-1H-1,2,3-triazole-4-carboxamide] | >1.7 | – | –
12 | O=C(Nc1ccc2c(c1)B(O)OC2)c1nnc(-c2ccccn2)o1 [Compound 31, N-(1-Hydroxy-1,3-dihydrobenzo[c][1,2]oxaborol-6-yl)-5-(pyridin-2-yl)-1,3,4-oxadiazole-2-carboxamide] | >32 | – | >7
13 | Cc1c(-c2ccccn2)coc1C(=O)Nc1ccc2c(c1)B(O)OC2 [Compound 28, N-(1-Hydroxy-1,3-dihydrobenzo[c][1,2]oxaborol-6-yl)-3-methyl-4-(pyridin-2-yl)furan-2-carboxamide] | – | – | 45
14 | O=C(Nc1ccc2c(c1)B(O)OC2)c1ccc(F)cc1C(F)(F)F [Compound 3] | – | >24 | –
15 | Cc1nn(C2CCC2)cc1C(=O)Nc1ccc2c(c1)B(O)OC2 [Compound 8, Cyclobutyl-N-(1-hydroxy-1,3-dihydrobenzo[c][1,2]oxaborol-6-yl)-3-methyl-1H-pyrazole-4-carboxamide] | – | >4 | –
16 | Cc1nn(CCC(F)(F)F)cc1C(=O)Nc1ccc2c(c1)B(O)OC2 [Compound 7, N-(1-Hydroxy-1,3-dihydrobenzo[c][1,2]oxaborol-6-yl)-3-methyl-1-(3,3,3-trifluoropropyl)-1H-pyrazole-4-carboxamide] | – | >11 | –
17 | Cc1c(C(=O)Nc2ccc3c(c2)B(O)OC3)cnn1-c1ccccn1 [Compound 16, N-(1-Hydroxy-1,3-dihydrobenzo[c][1,2]oxaborol-6-yl)-5-methyl-1-(pyridin-2-yl)-1H-pyrazole-4-carboxamide] | – | – | 52
18 | O=C(Nc1ccc2c(c1)B(O)OC2)c1cn(CC(F)(F)F)nc1C(F)(F)F [Compound 5, N-(1-Hydroxy-1,3-dihydrobenzo[c][1,2]oxaborol-6-yl)-1-(2,2,2-trifluoroethyl)-3-(trifluoromethyl)-1H-pyrazole-4-carboxamide] | – | >40 | >64

— PMC8591608, “DNDI-6148: A Novel Benzoxaborole Preclinical Candidate for the Treatment of Visceral Leishmaniasis” (Journal of Medicinal Chemistry, 2021)
